The chains behind the UniProt entries cited, without tags or fusion partners. Residues count along the entry.
UniProt Q5ZYC7, 153-380 limits assumed: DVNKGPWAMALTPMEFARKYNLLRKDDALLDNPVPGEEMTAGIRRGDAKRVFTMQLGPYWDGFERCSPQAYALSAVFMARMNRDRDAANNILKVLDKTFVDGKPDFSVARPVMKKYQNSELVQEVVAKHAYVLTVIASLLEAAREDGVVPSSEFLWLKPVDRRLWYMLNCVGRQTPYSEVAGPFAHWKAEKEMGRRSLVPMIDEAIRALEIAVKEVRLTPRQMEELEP

In article PMC5802825, “Legionella DotM structure reveals a role in effector recruiting to the Type 4B secretion system” (2018):

molecular target: DotM153 WT (cytoplasmic domain of DotM, residues 153–380) (Legionella pneumophila subsp. pneumophila, UniProt Q5ZYC7)

SMILES | Kd [nM]
CC(C)[C@H](NC(=O)[C@H](CO)NC(=O)[C@H](C)NC(=O)[C@H](CO)NC(=O)[C@H](CC(N)=O)NC(=O)[C@H](CCCNC(=N)N)NC(=O)[C@H](CO)NC(=O)[C@H](CCC(=O)O)NC(=O)[C@H](CCC(=O)O)NC(=O)[C@H](CC(=O)O)NC(=O)[C@H](CCC(=O)O)NC(=O)[C@H](CC(N)=O)NC(=O)[C@H](CCC(=O)O)NC(=O)[C@H](CCC(=O)O)NC(=O)[C@H](CCC(=O)O)NC(=O)[C@H](CO)NC(=O)[C@H](CCC(=O)O)NC(=O)[C@H](C)NC(=O)[C@H](CCCCN)NC(=O)[C@H](CC(=O)O)NC(=O)[C@H](CCC(=O)O)NC(=O)[C@H](CO)NC(=O)[C@@H](NC(=O)[C@@H](NC(=O)[C@H](CCCCN)NC(=O)[C@@H]1CCCN1C(=O)CNC(=O)CN)C(C)C)C(C)C)C(=O)O | 700
CC(C)C[C@H](NC(=O)[C@H](CO)NC(=O)[C@H](CO)NC(=O)[C@H](CC(C)C)NC(=O)[C@H](CC(C)C)NC(=O)[C@H](CO)NC(=O)[C@H](CO)NC(=O)[C@H](CCC(=O)O)NC(=O)[C@H](CCC(=O)O)NC(=O)[C@H](CCC(=O)O)NC(=O)[C@H](CCC(=O)O)NC(=O)[C@H](CCC(=O)O)NC(=O)[C@H](CCC(=O)O)NC(=O)[C@H](CCC(=O)O)NC(=O)[C@H](CCC(=O)O)NC(=O)[C@H](CC(C)C)NC(=O)[C@H](CC(C)C)NC(=O)[C@@H](NC(=O)[C@H](CC(=O)O)NC(=O)[C@H](CC(=O)O)NC(=O)[C@H](CO)NC(=O)[C@H](CO)NC(=O)[C@H](Cc1ccccc1)NC(=O)CNC(=O)CN)C(C)C)C(=O)N[C@@H](CCCCN)C(=O)N[C@@H](CCC(=O)O)C(=O)O | 350
CSCC[C@H](NC(=O)[C@@H](NC(=O)[C@H](Cc1ccccc1)NC(=O)[C@H](CCCNC(=N)N)NC(=O)[C@H](CO)NC(=O)[C@H](CO)NC(=O)[C@H](CCC(=O)O)NC(=O)[C@H](CCC(=O)O)NC(=O)[C@H](CC(N)=O)NC(=O)[C@H](CCC(=O)O)NC(=O)[C@H](CCC(=O)O)NC(=O)[C@H](CCC(=O)O)NC(=O)[C@H](CCCCN)NC(=O)[C@H](CCC(=O)O)NC(=O)[C@H](CCC(=O)O)NC(=O)[C@H](CC(N)=O)NC(=O)[C@H](CCC(=O)O)NC(=O)[C@H](CO)NC(=O)[C@H](CO)NC(=O)[C@H](CCC(=O)O)NC(=O)[C@H](CO)NC(=O)[C@H](CO)NC(=O)[C@H](CO)NC(=O)[C@H](Cc1ccccc1)NC(=O)[C@H](CCC(=O)O)NC(=O)[C@H](C)NC(=O)CNC(=O)CN)[C@@H](C)O)C(=O)O | 190
